Anti-infective test results gathered from many reports (values: NIAID ChemDB through PubChem).

All rows: target-level tests; agent: Pneumocystis carinii

ICn is the concentration giving n% inhibition. a–b is a range or a potency band. Percent inhibition refers to the dose given; in toxicity tests it is the harm to the cells. Conditions beyond the fields shown may differ between rows.

{"SMILES": "O=C(O)c1cc2ccccc2c(Cc2c(O)c(C(=O)O)cc3ccccc23)c1O", "measure": "IC50", "protein": "DHFR", "value": "96 µM"}
{"SMILES": "Nc1nc(N)c2c(n1)CCc1cc(Cl)c(Cl)cc1-2", "measure": "IC50", "protein": "Dihydrofolate reductase", "value": "20 µM"}
{"SMILES": "COc1cc(Cc2cnc(N)nc2N)cc(OCc2ccccc2)c1OC", "measure": "IC50", "protein": "DHFR", "value": "13.9 µM"}
{"SMILES": "CCc1nc(N)nc(N)c1-c1ccc(N(C)Cc2ccccc2)c(N)c1", "measure": "IC50", "protein": "DHFR", "value": "3.6 µM"}
{"SMILES": "N=C(N)c1ccc2nc(CCc3nc4ccc(C(=N)N)cc4[nH]3)[nH]c2c1", "measure": "IC50", "protein": "Topoisomerase I", "value": "≤10 µM"}
{"SMILES": "COc1ccc(NS(=O)(=O)c2ccc(N)cc2)nn1", "measure": "inhibition", "dose": "0.05 µM", "protein": "DHPS", "value": "75%"}
{"SMILES": "CC(=CCC/C(C)=C/CO)CCCN(C)C", "measure": "IC50", "protein": "Oxidosqualene cyclase", "value": ">10 µM"}
{"SMILES": "CC(=O)Nc1ccc(C(=O)O)c(C(=O)c2ccccc2Cl)c1", "measure": "inhibition", "dose": "100 µM", "protein": "DHFR", "value": "26%"}
{"SMILES": "Nc1nc(N)c2c(n1)Cc1cc(Cl)c(Cl)cc1-2", "measure": "IC50", "protein": "Dihydrofolate reductase", "value": "23 µM"}
{"SMILES": "O=C1C(=O)c2ccccc2C(O)=C1C1CCC(c2ccc(Cl)cc2)CC1", "measure": "inhibition", "dose": "10 µM", "protein": "Dihydroorotate dehydrogenase", "value": "36.5%"}
{"SMILES": "Cc1ccc2c(ccc3nc(N)nc(N)c32)c1", "measure": "IC50", "protein": "Dihydrofolate reductase", "value": "0.46 µM"}
{"SMILES": "N=C(N)c1ccc(-c2cc3ccc(C(=N)N)cc3[nH]2)cc1", "measure": "IC50", "protein": "Topoisomerase II", "value": "1–3 µM"}
{"SMILES": "O=C(O)c1c(Cl)c(Cl)c(Cl)c(Cl)c1C(=O)N(c1ccccc1)c1ccco1", "measure": "inhibition", "dose": "100 µM", "protein": "DHFR", "value": "12%"}
{"SMILES": "CCCNC(=O)c1ccc(NCc2cnc3nc(N)nc(N)c3n2)cc1", "measure": "IC50", "protein": "DHFR", "value": "3.1 µM"}
{"SMILES": "COc1ccc2c(c1)CCc1nc(N)nc(N)c1-2", "measure": "IC50", "protein": "Dihydrofolate reductase", "value": "6.2 µM"}
{"SMILES": "O=S(=O)(O)c1cc(O)c(N=Nc2cccc3ccc(O)cc23)c2ccccc12", "measure": "IC50", "protein": "DHFR", "value": "80 µM"}
{"SMILES": "CCOc1cc(Cc2cnc(N)nc2N)cc(OCCNS(=O)(=O)c2ccc(NC(C)=O)cc2)c1OC", "measure": "IC50", "protein": "DHFR", "value": "2.4 µM"}
{"SMILES": "Nc1ccc(S(=O)(=O)Nc2cnc3ccccc3n2)cc1", "measure": "Ki", "protein": "Oxidosqualene cyclase", "method": "HPLC", "value": "92 µM"}
{"SMILES": "Nc1nc(N)c(-c2ccc(Cl)c(Cl)c2)c(/C=C/c2ccc3ccccc3c2)n1", "measure": "IC50", "protein": "DHFR", "value": "12.8 µM"}
{"SMILES": "Nc1nc(N)c2c(n1)Cc1c(Cl)cccc1-2", "measure": "IC50", "protein": "Dihydrofolate reductase", "value": "7.2 µM"}
{"SMILES": "O=C(O)COCC(=O)NNC(=O)c1ccncc1", "measure": "inhibition", "dose": "100 µM", "protein": "DHFR", "value": "14%"}
{"SMILES": "Cc1ccc2c(ccc3nc(N)nc(N)c32)c1", "measure": "IC50", "protein": "DHFR", "value": "0.46 µM"}
{"SMILES": "CC(=O)Nc1ccc(S(=O)(=O)NC(=O)NCCC(C)C)cc1", "measure": "IC50", "protein": "DHPS", "value": ">10 µM"}
{"SMILES": "COc1cc(Cc2cnc(N)nc2N)cc(OCCC(CCC(=O)O)C(=O)O)c1Br", "measure": "IC50", "protein": "DHFR", "value": "0.04 µM"}
{"SMILES": "COc1ccc(C(=O)c2cc(OC)c(OC)c(OC)c2)cc1OC", "measure": "IC50", "protein": "DHFR", "value": "100 µM"}
{"SMILES": "CN(C)C(=O)c1ccc(NCc2cnc3nc(N)nc(N)c3n2)cc1", "measure": "IC50", "protein": "DHFR", "value": ">5 µM"}
{"SMILES": "COc1ncnc(NS(=O)(=O)c2ccc(N)cc2)c1OC", "measure": "IC50", "protein": "Oxidosqualene cyclase", "method": "HPLC", "value": ">500 µM"}
{"SMILES": "c1cc2nc(CCCCc3nc4ccc(C5=NCCN5)cc4[nH]3)[nH]c2cc1C1=NCCN1", "measure": "IC50", "protein": "Topoisomerase II", "value": "0.31–1.25 µM"}
{"SMILES": "N=C(N)c1ccc2nc(CCCCc3nc4ccc(C(=N)N)cc4[nH]3)[nH]c2c1", "measure": "IC50", "protein": "Topoisomerase II", "value": "12.5 µM"}
{"SMILES": "O=[N+]([O-])c1ccc(-c2cc(Cl)c3cc(S(=O)(=O)F)ccc3n2)cc1", "measure": "IC50", "protein": "DHFR", "value": "~150 µM"}
{"SMILES": "Nc1ccc(S(=O)(=O)Nc2nccs2)cc1", "measure": "IC50", "protein": "DHPS", "value": "<0.05 µM"}
{"SMILES": "CC1(C)N=C(N)N=C(N)N1c1ccc(CCCCc2ccccc2)cc1", "measure": "IC50", "protein": "DHFR", "value": "0.31 µM"}
{"SMILES": "CCOC(=O)c1ccc(NS(=O)(=O)c2ccc(NC(C)=O)cc2)cc1", "measure": "IC50", "protein": "DHPS", "value": ">10 µM"}
{"SMILES": "O=C(O)c1c(Cl)c(Cl)c(Cl)c(Cl)c1C(=O)Nc1cccc(C(F)(F)F)c1", "measure": "inhibition", "dose": "100 µM", "protein": "DHFR", "value": ">21%"}
{"SMILES": "Cc1c(CNc2ccc(Cl)c(C(=O)NC(CC(=O)O)C(=O)O)c2)ccc2nc(N)nc(N)c12", "measure": "IC50", "protein": "DHFR", "value": "0.0054 µM"}
{"SMILES": "NNc1ccc(C(=O)NS(=O)(=O)c2ccc(N)cc2)cc1", "measure": "IC50", "protein": "DHPS", "value": ">10 µM"}
{"SMILES": "N=C(N)c1ccc2nc(/C=C/c3nc4ccc(C(=N)N)cc4[nH]3)[nH]c2c1", "measure": "IC50", "protein": "Topoisomerase II", "value": "0.31–1.25 µM"}
{"SMILES": "COc1cc(Cc2cnc(N)nc2N)cc(OC)c1C(C)(C)O", "measure": "IC50", "protein": "DHFR", "value": "25 µM"}
{"SMILES": "CC1(C)N=C(N)N=C(N)N1c1cc(C(F)(F)F)cc(C(F)(F)F)c1", "measure": "IC50", "protein": "DHFR", "value": "66.9 µM"}
{"SMILES": "Nc1ccc(S(=O)(=O)Nc2ccc(Cl)nn2)cc1", "measure": "IC50", "protein": "DHPS", "value": "0.018 µM"}
{"SMILES": "CN(Cc1cnc2nc(N)nc(N)c2n1)c1ccc(C(=O)N[C@@H](CCC(=O)O)C(=O)O)cc1C(F)(F)F", "measure": "IC50", "protein": "DHFR", "value": "0.00031 µM"}
{"SMILES": "Nc1ccc(S(=O)(=O)Nc2cc(C(F)(F)F)cc(C(F)(F)F)c2)cc1", "measure": "IC50", "protein": "DHPS", "value": "0.8 µM"}
{"SMILES": "Nc1nc(N)c2c(ccc3c(Cl)cc(Cl)cc32)n1", "measure": "IC50", "protein": "Dihydrofolate reductase", "value": "19 µM"}